PSTVd stem 15 mutant pool in Nicotiana benthamiana

Region: stem 15 of PSTVd (intermediate strain), upper and lower strand joined, each 5' to 3', the first 9 letters being the upper strand. Wild type: CUGGAGCGAUCGCUUCGG. Varied positions (N): CUGGAGCGAUNGNNUNNG.

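Three N. benthamiana plants were inoculated with the whole mutant pool. Progeny were sequenced from the inoculated region (day 5), the margin of the inoculated leaf (day 10) and systemic leaves (day 12).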

Values are reads per thousand in the sample; higher means more abundant, 0 means not found.
Each value is the mean of three plants.
"Pool" is the share in the plasmid pool used as inoculum, on the same scale.
The inoculated region was read from the minus strand, the other sites from the plus strand.
IR is the inoculated region, LM the leaf margin, Sys the systemic leaves.
The authors trace changes outside the varied positions to PCR and sequencing errors or to mutation in the plant; presence does not show that a variant is infectious alone.
Samples held 36,693 to 63,082 reads, so the smallest values rest on one or two reads.
For reference, wild type rose from 10.2 per thousand in the pool to 285, 367, 312 (inoculated region), 785, 865, 782 (leaf margin) and 854, 898, 915 (systemic leaves).

{"sequence": "AUGGAGCGAUUGGAUAAG", "pool": "0.0162", "IR": 0, "LM": 0, "Sys": 0}
{"sequence": "CGGGAGCGAUGGCGUGCG", "pool": "0.0162", "IR": 0, "LM": 0, "Sys": 0}
{"sequence": "CUAGAGCGAUUGCAUUGG", "pool": "0.0162", "IR": 0, "LM": 0, "Sys": 0}
{"sequence": "CUGGAGCGAUAGACUAUG", "pool": "1.12", "IR": 0.414, "LM": 0.0350, "Sys": 0}
{"sequence": "CUGGAGCGAUAGGAUCGG", "pool": "0.663", "IR": 0.318, "LM": 0.0372, "Sys": 0}
{"sequence": "CUGGAGCGAUAGGGUUGG", "pool": "1.45", "IR": 0.751, "LM": 0.0235, "Sys": 0}
{"sequence": "CUGGAGCGAUAGGUUACG", "pool": "0.970", "IR": 0.312, "LM": 0.0298, "Sys": 0}
{"sequence": "CUGGAGCGAUAGUAUUUG", "pool": "0.727", "IR": 0.290, "LM": 0.0419, "Sys": 0}
{"sequence": "CUGGAGCGAUAGUGUUAG", "pool": "1.36", "IR": 1.83, "LM": 0.785, "Sys": 0.484}
{"sequence": "CUGGAGCGAUCGACUGUG", "pool": "0.566", "IR": 0.275, "LM": 0.0441, "Sys": 0}
{"sequence": "CUGGAGCGAUCGAGUAUG", "pool": "0.937", "IR": 0.289, "LM": 0.0349, "Sys": 0}
{"sequence": "CUGGAGCGAUCGAGUCUG", "pool": "0.711", "IR": 0.282, "LM": 0.0276, "Sys": 0}
{"sequence": "CUGGAGCGAUCGCCUGUG", "pool": "1.08", "IR": 0.331, "LM": 0.0441, "Sys": 0}
{"sequence": "CUGGAGCGAUCGCGUGGG", "pool": "0.857", "IR": 0.325, "LM": 0.0372, "Sys": 0}
{"sequence": "CUGGAGCGAUCGGCUACG", "pool": "1.31", "IR": 0.474, "LM": 0.0367, "Sys": 0.00664}
{"sequence": "CUGGAGCGAUCGUAUUUG", "pool": "0.921", "IR": 0.194, "LM": 0.0312, "Sys": 0}
{"sequence": "CUGGAGCGAUCGUUUUGG", "pool": "0.760", "IR": 1.23, "LM": 0.0456, "Sys": 0}
{"sequence": "CUGGAGCGAUGGACUCAG", "pool": "0.776", "IR": 0.255, "LM": 0.0276, "Sys": 0}
{"sequence": "CUGGAGCGAUGGCAUCAG", "pool": "0.970", "IR": 0.281, "LM": 0.0510, "Sys": 0}
{"sequence": "CUGGAGCGAUGGCUUCCG", "pool": "0.970", "IR": 0.287, "LM": 0.0450, "Sys": 0}
{"sequence": "CUGGAGCGAUGGGAUCGG", "pool": "0.711", "IR": 0.257, "LM": 0, "Sys": 0}
{"sequence": "CUGGAGCGAUGGGAUCUG", "pool": "0.937", "IR": 0.261, "LM": 0.0610, "Sys": 0}
{"sequence": "CUGGAGCGAUGGGGUGAG", "pool": "0.824", "IR": 0.307, "LM": 0.0707, "Sys": 0}
{"sequence": "CUGGAGCGAUUGCAUUGG", "pool": "1.03", "IR": 0.661, "LM": 0.00908, "Sys": 0.00664}
{"sequence": "CUGGAGCGAUUGCAUUUG", "pool": "1.02", "IR": 0.482, "LM": 0.0381, "Sys": 0}
{"sequence": "CUGGAGCGAUUGCCUCUG", "pool": "0.937", "IR": 0.271, "LM": 0.0320, "Sys": 0}
{"sequence": "CUGGAGCGAUUGGUUCAG", "pool": "1.65", "IR": 1.30, "LM": 0.0229, "Sys": 0.0133}
{"sequence": "CUGGAGCGAUUGGUUCGG", "pool": "2.60", "IR": 4.00, "LM": 0.0739, "Sys": 0.00664}
{"sequence": "CUGGAGCGAUUGUCUACG", "pool": "0.857", "IR": 1.43, "LM": 0.355, "Sys": 0}
{"sequence": "CUGGAGCGAUUGUUUAUG", "pool": "0.954", "IR": 1.09, "LM": 0.0282, "Sys": 0}
{"sequence": "CUGGAGCGAUUGUUUUUG", "pool": "1.79", "IR": 4.07, "LM": 1.29, "Sys": 1.18}

Data from the supplement of Wu et al. 2024, doi:10.1371/journal.ppat.1012142.